# Sequence variants of PSTVd loop 6 after infection

Region: loop 6 of PSTVd (intermediate strain), upper and lower strand joined, each 5' to 3', the first 5 letters being the upper strand, closing pairs included. Wild type: UGACCGCGAG. Varied positions (N): UNNNCGNNNG.

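Three N. benthamiana plants were inoculated with the whole mutant pool. Progeny were sequenced from the inoculated region (day 5), the margin of the inoculated leaf (day 10) and systemic leaves (day 12).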

Values are reads per thousand in the sample; higher means more abundant, 0 means not found. Each site shows the three plants. "Pool" is the share in the plasmid pool used as inoculum, on the same scale. The inoculated region was read from the minus strand, the other sites from the plus strand. Samples held 36,220 to 57,551 reads, so the smallest values rest on one or two reads. For reference, wild type rose from 20.7 per thousand in the pool to 195, 198, 203 (inoculated region), 629, 591, 734 (leaf margin) and 942, 870, 868 (systemic leaves). Sequences that differ at fixed positions probably stem from PCR or sequencing errors, and defective variants can be carried along by functional ones.

| sequence | pool | inoculated region | leaf margin | systemic leaves |
|---|---|---|---|---|
| UCGCCGUAUG | 0.275 | 0.139 0.0898 0.0922 | 0.359 0 0.0464 | 0 0 0 |
| UCGCCGUCAG | 0.235 | 0.0521 0.0719 0.0369 | 0 0 0.0232 | 0 0 0 |
| UCGCCGUCCG | 0.222 | 0.0695 0.108 0.111 | 0.0276 0 0 | 0 0 0 |
| UCGCCGUCGG | 0.196 | 0.174 0.0539 0.129 | 0 0 0 | 0 0 0 |
| UCGCCGUCUG | 0.222 | 0.0869 0.126 0.129 | 0 0 0.0232 | 0 0 0 |
| UCGCCGUGAG | 0.131 | 0.765 0.521 0.406 | 0.0552 0 0 | 0 0 0 |
| UCGCCGUGCG | 0.157 | 0.0869 0 0.111 | 0 0 0 | 0 0 0 |
| UCGCCGUGGG | 0.131 | 0.104 0.108 0.0922 | 0 0 0 | 0 0 0 |
| UCGCCGUGUG | 0.196 | 0.0695 0.126 0.0369 | 0 0 0 | 0 0 0 |
| UCGCCGUUAG | 0.431 | 0.156 0.0539 0.0553 | 0 0 0 | 0 0 0 |
| UCGCCGUUCG | 0.275 | 0.156 0.0898 0.0369 | 0.0828 0 0 | 0 0 0 |
| UCGCCGUUGG | 0.248 | 0.0174 0.108 0.129 | 0 0 0 | 0 0 0 |
| UCGCCGUUUG | 0.353 | 0.0869 0.0898 0.0922 | 0 0 0.0232 | 0 0 0 |
| UCGGAGCAUG | 0.0131 | 0 0 0 | 0 0 0 | 0 0 0 |
| UCGGAGCGUU | 0.0131 | 0 0 0 | 0 0 0 | 0 0 0 |
| UCGGCGAAAG | 0.392 | 0.104 0.0898 0.148 | 0 0 0 | 0 0 0 |
| UCGGCGAACG | 0.222 | 0.0869 0.0719 0.0369 | 0 0 0 | 0 0 0 |
| UCGGCGAAGG | 0.209 | 0.156 0.0539 0.0553 | 0 0 0 | 0 0 0 |
| UCGGCGAAUG | 0.340 | 0.156 0.0898 0.0738 | 0.0552 0 0.0232 | 0 0 0.0205 |
| UCGGCGACAG | 0.235 | 0.156 0.0180 0.129 | 0 0 0 | 0 0 0 |
| UCGGCGACCG | 0.222 | 0.0869 0.0719 0.0553 | 0 0 0 | 0 0 0 |
| UCGGCGACGG | 0.275 | 0.0521 0.108 0.111 | 0.0276 0 0 | 0 0 0 |
| UCGGCGACUG | 0.366 | 0.0521 0.108 0.0922 | 0 0 0 | 0 0 0 |
| UCGGCGAGAG | 0.288 | 0.174 0.108 0.111 | 0 0 0.0232 | 0 0 0 |
| UCGGCGAGCG | 0.235 | 0.104 0.0719 0.0369 | 0 0 0 | 0 0 0.0205 |
| UCGGCGAGGG | 0.248 | 0.0869 0.0719 0.0738 | 0 0 0 | 0 0 0 |
| UCGGCGAGUG | 0.288 | 0.139 0.108 0.0553 | 0 0 0 | 0 0 0 |
| UCGGCGAUAG | 0.353 | 0.0695 0.0898 0.0738 | 0 0 0.162 | 0 0 0 |
| UCGGCGAUCG | 0.314 | 0.139 0.108 0.0369 | 0 0 0 | 0 0 0 |
| UCGGCGAUGG | 0.366 | 0.0174 0.0539 0.0553 | 0 0 0 | 0 0 0.0410 |
| UCGGCGAUUG | 0.497 | 0.0174 0.0898 0.0369 | 0 0 0 | 0 0 0 |
| UCGGCGCAAG | 0.131 | 0.0695 0.0898 0.129 | 0 0 0.0464 | 0 0 0 |
| UCGGCGCACG | 0.327 | 0.0869 0.0719 0.0738 | 0 0 0 | 0 0 0 |
| UCGGCGCAGG | 0.288 | 0.139 0.108 0.0922 | 0 0.252 0 | 0 0 0.0205 |
| UCGGCGCAUG | 0.209 | 0.0695 0.0719 0.0738 | 0 0 0 | 0 0 0 |
| UCGGCGCCAG | 0.196 | 0.0869 0.0359 0.0553 | 0 0 0 | 0 0 0 |
| UCGGCGCCCG | 0.327 | 0.122 0.0539 0.0738 | 0 0 0 | 0 0 0 |
| UCGGCGCCGG | 0.248 | 0.104 0.0539 0.129 | 0 0 0 | 0 0 0 |
| UCGGCGCCUG | 0.327 | 0.0695 0.108 0.129 | 0 0.0757 0.0232 | 0 0 0 |
| UCGGCGCGAG | 0.366 | 0.191 0.144 0.295 | 0.193 0.732 0.0928 | 0.0539 0.0606 0.103 |
| UCGGCGCGAU | 0.0131 | 0.0521 0.126 0.111 | 0.0276 0 0 | 0 0 0 |
| UCGGCGCGCG | 0.209 | 0.104 0.0539 0.0553 | 0 0 0 | 0 0 0 |
| UCGGCGCGGG | 0.327 | 0.156 0.0539 0.184 | 0 0.0757 0 | 0 0 0 |
| UCGGCGCGUG | 0.209 | 0.174 0.0898 0.148 | 0 0.0504 0 | 0 0 0 |
| UCGGCGCUAG | 0.235 | 0.0869 0.0539 0.0553 | 0 0 0 | 0 0 0 |

The first 6 entries again:

{"sequence": "UCGCCGUAUG", "pool": "0.275", "inoculated region": "0.139 0.0898 0.0922", "leaf margin": "0.359 0 0.0464", "systemic leaves": "0 0 0"}
{"sequence": "UCGCCGUCAG", "pool": "0.235", "inoculated region": "0.0521 0.0719 0.0369", "leaf margin": "0 0 0.0232", "systemic leaves": "0 0 0"}
{"sequence": "UCGCCGUCCG", "pool": "0.222", "inoculated region": "0.0695 0.108 0.111", "leaf margin": "0.0276 0 0", "systemic leaves": "0 0 0"}
{"sequence": "UCGCCGUCGG", "pool": "0.196", "inoculated region": "0.174 0.0539 0.129", "leaf margin": "0 0 0", "systemic leaves": "0 0 0"}
{"sequence": "UCGCCGUCUG", "pool": "0.222", "inoculated region": "0.0869 0.126 0.129", "leaf margin": "0 0 0.0232", "systemic leaves": "0 0 0"}
{"sequence": "UCGCCGUGAG", "pool": "0.131", "inoculated region": "0.765 0.521 0.406", "leaf margin": "0.0552 0 0", "systemic leaves": "0 0 0"}

Data from the supplement of Wu et al. 2024, doi:10.1371/journal.ppat.1012142.